{"source": "paper PMC6856128", "about": "(Scientific Reports, 2019)", "system": "O=C(O)C(=O)CS", "test": "purified protein", "details": "pH 8.0; 37.0 °C", "data": [{"substance": "CysA2 (Mycobacterium tuberculosis H37Rv)", "values": [{"measurement": "Km", "value": "7.02 ± 0.05", "unit": "mM"}]}]}
